Taken from: PubChem BioAssay AID624099 (ICCB-Longwood, 2012)
Here is a random part of about 21,000 deposited reagents. Of all reagents, 497 (2.4%) got an active call. 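Higher z means weaker E2 silencing; only reporter increases were scored, and knock-downs that hurt cell survival may mask genuine repressor factors.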 Entries without a mark were called inactive.

- Assay: 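Knock-downs relieving repression by E2 of an HPV18 LCR luciferase reporter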 (primary screen)
- Cell system: human C33A cervical carcinoma cells (HPV-negative) stably expressing BPV1 E2 and an HPV18 LCR luciferase reporter
- Reagents: siRNA pool against human genes, 40 nM
- Timing: 72 h
- Measured: 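Per-well luciferase luminescence, z-scored on each plate against the plate mean and SD with control wells left out, then averaged across three replicate plates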
- Direction: mean z-score and z-score: higher = stronger reporter signal, weaker E2 silencing
- Rule for the call: 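Hit if mean z-score reaches 2 and two or more of three replicate z-scores also reach 2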

Knock-down of DYTN came out at: mean z-score 0.45; z-score, replicate A = 0.22; z-score, replicate B = 0.47; z-score, replicate C = 0.65.
Depletion of NSD3 came out at: mean z-score 1.31; z-score, replicate A = 1.05; z-score, replicate B = 1.3; z-score, replicate C = 1.59.
Knock-down of FUT4 resulted in: mean z-score -0.56; z-score, replicate A = -0.58; z-score, replicate B = -0.37; z-score, replicate C = -0.73.
With knock-down of SLC8A2, the screen gave mean z-score -1.36; z-score, replicate A = -1.04; z-score, replicate B = -1.39; z-score, replicate C = -1.65.
Silencing of ZNF641 resulted in: mean z-score -0.33; z-score, replicate A = -0.23; z-score, replicate B = -0.32; z-score, replicate C = -0.45.
With knock-down of RBBP4, the screen gave mean z-score -0.98; z-score, replicate A = -0.89; z-score, replicate B = -0.8; z-score, replicate C = -1.24.
Against LINC00471, the entry reads mean z-score 0.72; z-score, replicate A = 0.7; z-score, replicate B = 0.5; z-score, replicate C = 0.96.
LINC02232 scored mean z-score 0.12; z-score, replicate A = 1.26; z-score, replicate B = -0.46; z-score, replicate C = -0.44.
Against ZNF713 the deposit lists mean z-score 0.32; z-score, replicate A = 0.21; z-score, replicate B = 0.39; z-score, replicate C = 0.34.
MRPL15 showed mean z-score -0.96; z-score, replicate A = -1.14; z-score, replicate B = -0.8; z-score, replicate C = -0.94.
After knock-down of SGMS2 the results were mean z-score 1.03; z-score, replicate A = 1.42; z-score, replicate B = 1; z-score, replicate C = 0.68.
Against PHLDA3 the deposit lists mean z-score -1.7; z-score, replicate A = -1.97; z-score, replicate B = -1.49; z-score, replicate C = -1.64.
Depletion of CNR2 came out at: mean z-score -0.67; z-score, replicate A = -0.56; z-score, replicate B = -0.93; z-score, replicate C = -0.52.
After knock-down of C15orf40, the screen gave mean z-score 0.88; z-score, replicate A = 0.48; z-score, replicate B = 0.99; z-score, replicate C = 1.17.

3 entries from above, arranged by “z-score, replicate B”, lowest first:
LINC02232 → mean z-score: 0.12; z-score, replicate A: 1.26; z-score, replicate B: -0.46; z-score, replicate C: -0.44
ZNF713 → mean z-score: 0.32; z-score, replicate A: 0.21; z-score, replicate B: 0.39; z-score, replicate C: 0.34
LINC00471 → mean z-score: 0.72; z-score, replicate A: 0.7; z-score, replicate B: 0.5; z-score, replicate C: 0.96

Additional reagents follow.
Against IDH2, the values are mean z-score 0.11; z-score, replicate A = 0.42; z-score, replicate B = -0.18; z-score, replicate C = 0.1.
Against CCDC92 the deposit lists mean z-score 0.04; z-score, replicate A = -0.02; z-score, replicate B = 0.04; z-score, replicate C = 0.11.
MTCH2 gave mean z-score 0.43; z-score, replicate A = 0.35; z-score, replicate B = 0.52; z-score, replicate C = 0.44.
HOXD1 gave mean z-score 0.56; z-score, replicate A = 0.94; z-score, replicate B = 0.29; z-score, replicate C = 0.45.
PUS3 showed mean z-score 0.11; z-score, replicate A = 0.68; z-score, replicate B = -0.31; z-score, replicate C = -0.03.
Against PNPLA4, the entry reads mean z-score -0.18; z-score, replicate A = -0.13; z-score, replicate B = -0.17; z-score, replicate C = -0.25.
For PGD, the values are mean z-score -0.49; z-score, replicate A = -0.87; z-score, replicate B = -0.2; z-score, replicate C = -0.4.
